Experimental data: PMC7494911, “Translational pharmacology of an inhaled small molecule αvβ6 integrin inhibitor for idiopathic pulmonary fibrosis” (Nature Communications, 2020)

Amino acid sequences for entries named in this document (tags omitted). Residues count along the entry.
UniProt P06756, 31-1048, chain 1 of 2: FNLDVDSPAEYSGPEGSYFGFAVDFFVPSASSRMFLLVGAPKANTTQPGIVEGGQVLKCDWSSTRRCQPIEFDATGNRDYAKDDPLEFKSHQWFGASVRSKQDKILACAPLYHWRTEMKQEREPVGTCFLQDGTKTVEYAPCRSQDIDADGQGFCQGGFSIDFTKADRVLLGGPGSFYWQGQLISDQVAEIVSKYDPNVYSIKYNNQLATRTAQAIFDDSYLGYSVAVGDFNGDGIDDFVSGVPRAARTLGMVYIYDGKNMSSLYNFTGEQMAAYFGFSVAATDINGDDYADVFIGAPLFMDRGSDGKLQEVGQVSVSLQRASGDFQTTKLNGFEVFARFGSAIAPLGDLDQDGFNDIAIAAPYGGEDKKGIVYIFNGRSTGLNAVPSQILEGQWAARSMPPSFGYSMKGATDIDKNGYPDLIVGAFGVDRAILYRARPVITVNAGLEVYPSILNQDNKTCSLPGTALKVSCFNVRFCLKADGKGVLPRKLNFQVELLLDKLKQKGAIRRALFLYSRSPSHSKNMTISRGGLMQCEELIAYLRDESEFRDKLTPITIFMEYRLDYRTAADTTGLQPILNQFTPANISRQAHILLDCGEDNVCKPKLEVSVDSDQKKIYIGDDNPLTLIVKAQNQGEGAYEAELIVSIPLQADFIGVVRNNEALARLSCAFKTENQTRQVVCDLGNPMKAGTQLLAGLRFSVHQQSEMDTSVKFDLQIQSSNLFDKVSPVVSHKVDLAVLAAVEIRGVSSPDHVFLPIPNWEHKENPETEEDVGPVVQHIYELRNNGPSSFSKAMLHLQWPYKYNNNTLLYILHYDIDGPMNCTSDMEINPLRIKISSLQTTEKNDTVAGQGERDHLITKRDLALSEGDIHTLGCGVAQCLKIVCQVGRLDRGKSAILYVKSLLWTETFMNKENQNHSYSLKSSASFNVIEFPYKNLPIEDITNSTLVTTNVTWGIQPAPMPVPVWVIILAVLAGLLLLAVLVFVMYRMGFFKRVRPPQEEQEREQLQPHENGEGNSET

Molecular target: αvβ6 integrin (human, on NHBE cells) (human (endogenous in NHBE cells)) (UniProt P06756)

A20FMDV2 (peptide)
inhibition of αvβ6-mediated TGFβ activation (pSmad2 levels in NHBE cells), IC50: 3.5 nM
inhibition of αvβ6-mediated TGFβ activation (pSmad2 levels in NHBE cells), pIC50: 8.25 pIC50
